Assay results: US20240382586A1 (TAKIS S R L, published 2024)

Legend:
Assay in all cases: cell-based or functional assay
[1] = target: T1, SARS-CoV-2 spike, variant D614G (on virus or pseudovirus) (SARS-CoV-2, UniProt P0DTC2 14-1273)
[2] = target: SARS-CoV-2 spike, variant N501Y (B.1.1.7, British) (on virus or pseudovirus) (SARS-CoV-2, UniProt P0DTC2 14-1273)
[3] = target: T1, SARS-CoV-2 spike, variant D614G (on …); remark: listed apart in the source
[4] = target: SARS-CoV-2 spike, Brazilian variant P.1 (on pseudovirus) (SARS-CoV-2)
[5] = target: SARS-CoV-2 spike, Delta variant B1.617.2 (on pseudovirus) (SARS-CoV-2)

Binder | EC50 virus D614G (ng/ml), SARS-CoV-2 neutralisation on Vero E6 cells [1] [ng/mL] | EC50 virus N501Y (ng/ml), SARS-CoV-2 neutralisation on Vero E6 cells [2] [ng/mL] | IC50 (ng/ml), pseudovirus neutralisation, WT D614G [3] [ng/mL] | IC50 (ng/ml), pseudovirus neutralisation, Brazilian P.1 [4] [ng/mL] | IC50 (ng/ml), pseudovirus neutralisation, Delta B1.617.2 [5] [ng/mL]
9-8F2-B11 (mouse) (antibody, V domains shown) VH: EVQLQQSGAELVKPGASVKLSCTASGFNIKETYVHWVKQRPEQGLEWIGRIDPAIGDSEYDPKFQGKATVTADTSSNTAYLQLSRLTSEDTAVYYCARTWGPFFDFWGQGTTLTVSS VL: DVVMTQTPLSLPVSLGDQASISCRSSQSLVHSHGNTFLHWYLQKPGQSPKVLIYKVSSRFSGVPDRFSGSGAGTDFTLKISRVEAEDLGVYFCSQSTHVPYTFGGGTKLEIK | 5.49 | 0.87 | 11 | 57 | 127
humanised 9-8F2-B11 (VH3VL3) (antibody, V domains shown, also called 9-8F2-B11 humanised) VH: QVQLVQSGAEVKKPGASVKVSCKASGFNIKETYVHWVRQAPGQGLEWMGRIDPAIGDSEYAQKFQGRVTMTRDTSISTAYMELSRLRSDDTAVYYCARTWGPFFDFWGQGTLVTVSS VL: DIVMTQTPLSLSVTPGQPASISCKSSQSLLHSHGNTFLHWYLQKPGQSPQVLIYKVSSRFSGVPDRFSGSGSGTDFTLKISRVEAEDVGVYYCSQSTHVPYTFGQGTKLEIK |  |  | 16 | 3700 | 113
9-2H7-D7 (mouse) (antibody, V domains shown) VH: EVQLQQSGPELVKPGASVTISCKTSGYTFTEYTMYWVKQSHGKSLEWIGGINPYIGDTSYNQNFKGKATLTVDKSSSTAYMELRSLTSEDSAVYYCARDGYPDYSAMDFWGQGTSVTVSS VL: DIVMSQSPSSLAVSVGEKVTMNCKSSQNLLYSSNQKNYLAWYQQKPGQSPKLLIYWASTRESGVPDRFTGSGSGTDFTLTISSVKAEDLAVYSCQQYYTYPWTFGGGTKLEIK | 10.2 | 15.2 | 35 | 63 | 107
9-2H7-D7 chimera (antibody, V domains shown) VH: EVQLQQSGPELVKPGASVTISCKTSGYTFTEYTMYWVKQSHGKSLEWIGGINPYIGDTSYNQNFKGKATLTVDKSSSTAYMELRSLTSEDSAVYYCARDGYPDYSAMDFWGQGTSVTVSS VL: DIVMSQSPSSLAVSVGEKVTMNCKSSQNLLYSSNQKNYLAWYQQKPGQSPKLLIYWASTRESGVPDRFTGSGSGTDFTLTISSVKAEDLAVYSCQQYYTYPWTFGGGTKLEIK |  |  | 19 | 11 | 22
9-7A4-C2 (mouse) (antibody, V domains shown) VH: EVQLQQSGPELVKPGASVKISCKTSGYTFTEYTMYWVKQSHGKSLEWIGGINPNNGDSSYIQKFKGKATLTVDESSSTAYMELRSLTSEDSAVYYCARDGYPNSYAMDYWGQGTSVTVSS VL: DIVMSQSPSSLAVSVGDKVTMSCKSSQSLLYSTNQKNYLAWYQQKPGQSPKLLIYWASTRESGVPDRFTGSGSGTDFTLTIGSVRPEDLAVYYCQQYYSYPWTFGGGTKLEIK | 3.21 | 4.06 | 16 | 9 | 52
